Laboratory results reported in PubChem BioAssay AID200 (DTP/NCI, 2004).
Values joined by “and” are separate entries in the source; they are usually repeats but may differ in a detail not shown here. Equal entries are not always repeated. Inconclusive results and toxic doses are left out. The calls were made as follows: active = survival T/C of 150% or more; inactive = T/C below 125% in these data.

System: B6C3F1 mice, B16 melanoma ip, median survival T/C
Assay: NCI In Vivo Anticancer Drug Screen. Data for tumor model B16 Melanoma (intraperitoneal) in B6C3F1 mice
Conditions: endpoint: median survival time, schedule: Q01DX009 (ip), vehicle: saline, higher = longer survival
Method: The antitumor activity of compounds was measured in mice bearing transplantable tumors. Survival or tumor size were measured and the results are expressed as the measurement made in the treated group (T) divided by the measurement made in the vehicle treated control group (C). The tumor model used in this assay is B16 Melanoma (intraperitoneal) in B6C3F1 mice

Measured: T/C

O=P1(N(CCCl)CCCl)NC(SCCS(=O)(=O)O)CCO1 (stereo not given)
active: dose: 6.25 mg/kg/injection 178 % of control | dose: 12.5 mg/kg/injection 197 % of control and 202 % of control | dose: 25.0 mg/kg/injection 218 % of control and 242 % of control | dose: 50.0 mg/kg/injection 266 % of control and 344 % of control | dose: 100.0 mg/kg/injection 333 % of control and 344 % of control
